# According to US9556471B2, “Enzyme containing liquid and delivery system for detection of analytes on surfaces” (dated 2017):
# By UniProt entry, the sequences of proteins in these tests, tags left out. Residues count along the entry.
# UniProt P22303, 32-614 limits assumed: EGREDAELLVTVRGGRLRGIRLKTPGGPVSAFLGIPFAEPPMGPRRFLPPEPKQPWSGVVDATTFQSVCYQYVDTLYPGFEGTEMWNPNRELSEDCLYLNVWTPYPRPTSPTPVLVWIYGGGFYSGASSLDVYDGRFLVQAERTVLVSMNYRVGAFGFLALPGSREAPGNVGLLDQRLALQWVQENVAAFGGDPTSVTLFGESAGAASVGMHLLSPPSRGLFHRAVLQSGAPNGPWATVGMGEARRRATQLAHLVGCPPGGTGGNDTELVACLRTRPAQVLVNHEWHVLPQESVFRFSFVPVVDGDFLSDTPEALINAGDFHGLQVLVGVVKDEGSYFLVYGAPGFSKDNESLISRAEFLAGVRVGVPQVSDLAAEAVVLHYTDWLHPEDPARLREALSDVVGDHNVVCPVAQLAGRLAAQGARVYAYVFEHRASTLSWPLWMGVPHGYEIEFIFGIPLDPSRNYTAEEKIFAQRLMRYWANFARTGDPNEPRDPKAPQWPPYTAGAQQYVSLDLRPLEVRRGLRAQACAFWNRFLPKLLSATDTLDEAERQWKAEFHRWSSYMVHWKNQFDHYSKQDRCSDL
# What was measured:
# [1] = target: AChE (acetyl cholinesterase) (Homo sapiens, UniProt P22303); test: Sprayed AChE/urease enzyme containing liquid, organophosphate detection via visible color change; details: surface contaminated with 1 mg paraoxon per Petri dish; cresol red indicator
# AChE = AChE (Homo sapiens, UniProt P22303); test: AChE/urease liquid with horseradish peroxidase and luminol, organophosphate detection via light emission; details: paraoxon 1 mg/mL on surface in the dark; hydrogen peroxide 3% w/v sprayed after about 5 minutes
compound,measurement,setting,value
CCOP(=O)(OCC)Oc1ccc([N+](=O)[O-])cc1,time for sprayed sensor to turn from yellow to red (inhibition of AChE),[1],≤ 5 min
same,light emission after hydrogen peroxide spray,AChE,Blue light emitted
